Experimental data from paper PMC10272122, “Broad host tropism of ACE2-using MERS-related coronaviruses and determinants restricting viral recognition” (2023).
pKd: −log10 of the molar value. Read-outs that look alike come from different tables or passages of the source.

Assays:
[1] = biological target: Raeg ACE2-ABCD (Rousettus aegyptiacus)
[2] = biological target: ACE2 from Pipistrellus pipistrellus (Ppip ACE2), Pipistrellus pipistrellus
[3] = biological target: Rsin ACE2-N55T, Rhinolophus sinicus
[4] = biological target: ACE2 from Pipistrellus pipistrellus (Ppip ACE2), Pipistrellus pipistrellus; remark: listed apart in the source
[5] = biological target: Rsin ACE2-N55T, Rhinolophus sinicus; remark: listed apart in the source
[6] = biological target: NeoCoV RBD-hFc-twin-strep; assay: flow cytometry on cells
NeoCoV RBD-hFc = assay: BLI; settings: ACE2 ectodomain at 500nM, 250nM, 125nM, 62.5nM, 31.25nM, 15.625nM
PDF-2180 RBD-hFc [7] = assay: BLI; settings: ACE2 ectodomain at 500nM, 250nM, 125nM, 62.5nM, 31.25nM, 15.625nM; R2=0.9987
[8] = biological target: NeoCoV RBD-hFc-twin-strep
PDF-2180 RBD-hFc [9] = assay: BLI (SSG: steady-state graph affinity determination); settings: ACE2 ectodomain at 500nM, 250nM, 125nM, 62.5nM, 31.25nM, 15.625nM; SSG R2=0.9691

Substance PDF-2180 RBD-hFc has a pKd [1] of 9.16 and a koff [1] of 1.1e-05 s⁻¹.

NeoCoV RBD-hFc gave a pKd [2] of 8.75, a pKd [3] of 7.69 and a koff [4] of 0.000104 s⁻¹. The koff [5] was 0.000812 s⁻¹.

In the case of Pcin ACE2 Q305E, the response ([6]; parent: 0.35 ± 0.07) was 9.69%.

“Raeg ACE2 ectodomain, WT I55T; K305E; E329N; K330N; D337S; N338D; D339G; Q340R” showed a koff (NeoCoV RBD-hFc; R2=0.9978) of 0.000138 S-1, a kon (NeoCoV RBD-hFc; R2=0.9978) of 5880 M/s and a koff (PDF-2180 RBD-hFc [7]) of 1.1e-05 S-1.

Substance “Raeg ACE2 I55T; K305E; E329N; K330N; D337S; N338D; D339G; Q340R” has a response ([6]; parent: 0) of 94.9%.

In the case of Rsin ACE2 N55T, the response [8] was 99.7%.

In the case of Rsin ACE2 ectodomain, WT N55T, the pKd (NeoCoV RBD-hFc; R2=0.9995) was 7.69, the koff (NeoCoV RBD-hFc; R2=0.9995) was 0.000812 S-1 and the kon (NeoCoV RBD-hFc; R2=0.9995) was 39900 M/s. For the same substance, the pKd (PDF-2180 RBD-hFc [9]) was 7.85.

For Sape ACE2 Q305E, the response ([6]; parent: 0.04 ± 0.01) was 7.42%.

With Sscr ACE2 I305E the response ([6]; parent: 52.17 ± 0.68) was 65.9%.

With Nasi ACE2 K305E the response ([6]; parent: 6.37 ± 1.02) was 36.8%.

Sbol ACE2 R305E was tested, and the response ([6]; parent: 0.06 ± 0.01) was 0.29%.

Csim ACE2 N305E was tested, and the response ([6]; parent: 19.03 ± 1.19) was 73.2%.
